Data from PMC8954747 (Viruses, 2022).
Where two headings read alike, the source gives them in different places. The match of structure and compound is tentative.

By UniProt entry, the sequences of proteins in these tests, tags left out.
UniProt Q14160, whole entry, looked up: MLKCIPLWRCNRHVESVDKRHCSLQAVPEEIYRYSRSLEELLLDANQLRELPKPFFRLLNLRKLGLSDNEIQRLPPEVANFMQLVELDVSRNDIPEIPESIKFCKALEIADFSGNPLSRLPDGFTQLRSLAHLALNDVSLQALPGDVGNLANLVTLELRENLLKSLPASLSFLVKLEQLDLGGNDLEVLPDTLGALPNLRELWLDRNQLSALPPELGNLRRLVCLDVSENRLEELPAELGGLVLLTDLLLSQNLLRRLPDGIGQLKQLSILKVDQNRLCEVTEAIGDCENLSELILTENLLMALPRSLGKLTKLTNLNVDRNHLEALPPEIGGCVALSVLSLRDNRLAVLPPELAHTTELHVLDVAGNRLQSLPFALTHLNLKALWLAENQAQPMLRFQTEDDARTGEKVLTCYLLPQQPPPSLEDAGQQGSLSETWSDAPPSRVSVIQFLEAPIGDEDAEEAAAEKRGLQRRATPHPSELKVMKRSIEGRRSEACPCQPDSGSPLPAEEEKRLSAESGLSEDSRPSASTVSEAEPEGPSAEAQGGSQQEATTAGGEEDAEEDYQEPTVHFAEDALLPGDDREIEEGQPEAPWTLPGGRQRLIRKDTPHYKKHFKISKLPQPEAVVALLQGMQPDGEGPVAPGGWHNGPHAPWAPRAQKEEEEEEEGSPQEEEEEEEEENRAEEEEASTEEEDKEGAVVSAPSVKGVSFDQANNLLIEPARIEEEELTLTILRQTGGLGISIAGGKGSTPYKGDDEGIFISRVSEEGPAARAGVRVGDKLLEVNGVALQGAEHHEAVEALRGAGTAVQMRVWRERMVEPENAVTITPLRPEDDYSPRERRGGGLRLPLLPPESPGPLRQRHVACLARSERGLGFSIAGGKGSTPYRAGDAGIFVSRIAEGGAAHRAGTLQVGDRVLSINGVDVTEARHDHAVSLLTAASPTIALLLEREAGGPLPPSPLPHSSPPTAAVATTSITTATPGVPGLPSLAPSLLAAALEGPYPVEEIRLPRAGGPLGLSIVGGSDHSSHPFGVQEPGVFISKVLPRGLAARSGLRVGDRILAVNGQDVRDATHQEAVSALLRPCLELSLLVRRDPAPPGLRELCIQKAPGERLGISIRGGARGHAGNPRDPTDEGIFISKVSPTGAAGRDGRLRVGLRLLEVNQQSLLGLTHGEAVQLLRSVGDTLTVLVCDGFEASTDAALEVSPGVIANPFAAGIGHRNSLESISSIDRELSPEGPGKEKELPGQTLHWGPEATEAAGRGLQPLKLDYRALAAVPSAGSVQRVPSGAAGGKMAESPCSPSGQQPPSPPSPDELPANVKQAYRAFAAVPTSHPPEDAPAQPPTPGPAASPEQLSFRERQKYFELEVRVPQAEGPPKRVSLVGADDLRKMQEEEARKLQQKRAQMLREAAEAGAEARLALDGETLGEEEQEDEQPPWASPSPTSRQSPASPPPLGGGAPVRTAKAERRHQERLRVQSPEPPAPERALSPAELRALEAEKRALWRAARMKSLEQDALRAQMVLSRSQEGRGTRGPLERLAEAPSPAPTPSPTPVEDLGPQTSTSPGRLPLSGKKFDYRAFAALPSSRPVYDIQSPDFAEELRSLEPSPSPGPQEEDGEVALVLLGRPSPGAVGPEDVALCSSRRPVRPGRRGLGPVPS

Molecular target: SCRIB PDZ domains (UniProt Q14160)
Experiment: ITC binding to the individual SCRIB PDZ domains (summary over PDZ1-4)
Parameters: species or system human

SMILES | binding to SCRIB PDZ domains (in words) | binding to SCRIB PDZ domains (in words) (listed as KSEV)
CC[C@H](C)[C@H](NC(=O)[C@@H](NC(=O)[C@H](CCCNC(=N)N)NC(=O)[C@H](CCC(=O)O)NC(=O)[C@H](CCSC)NC(=O)[C@@H](N)CCCCN)[C@@H](C)O)C(=O)N[C@@H](CCC(=O)O)C(=O)N1CCC[C@H]1C(=O)N[C@@H](CCC(=O)O)C(=O)N[C@H](C(=O)O)C(C)C | did not bind | –
CSCC[C@H](NC(=O)[C@@H](N)CCCCN)C(=O)N[C@@H](C)C(=O)N[C@@H](CCCNC(=N)N)C(=O)N[C@H](C(=O)N[C@@H](C)C(=O)N[C@@H](CCCNC(=N)N)C(=O)N[C@@H](CO)C(=O)N[C@@H](CCCCN)C(=O)N[C@H](C(=O)O)C(C)C)[C@@H](C)O | no binding | –
CC[C@H](C)[C@H](NC(=O)[C@@H](NC(=O)CNC(=O)[C@H](C)NC(=O)[C@H](CCSC)NC(=O)[C@@H](N)CCC(=O)O)[C@@H](C)O)C(=O)N[C@@H](CCCNC(=N)N)C(=O)N[C@@H](CO)C(=O)N[C@@H](CCC(=O)O)C(=O)N[C@H](C(=O)O)C(C)C | no binding | –
CC[C@H](C)[C@H](NC(=O)[C@@H](NC(=O)[C@H](CCCNC(=N)N)NC(=O)[C@H](C)NC(=O)[C@H](CCSC)NC(=O)[C@@H](N)CCCCN)[C@@H](C)O)C(=O)N[C@@H](CCCCN)C(=O)N[C@@H](CO)C(=O)N[C@@H](CCC(=O)O)C(=O)N[C@H](C(=O)O)C(C)C | – | no binding
